Measured values as given in the supplement of paper PMC9931576.
Positions count from the first letter of the chain named. Human monoclonal antibodies against the spike receptor-binding domain (heavy:light variable regions). IC50 against pseudoviruses bearing the spike of naturally observed variants; lower = stronger; >10 µg/ml means not reached at the top dose. No active / inactive call. The stated detection limit is 0.0005 µg/ml; values near or below 0.001 µg/ml lie at the floor of the assay.

B1: BD56-1375 (protein)
chain 1: EVQLVESGGGLVQPGRSLRLSCAVSGFTFDDYAMHWVRQAPGKGLEWVSGISWNGDKTGYADSVKGRFTISRDNAKNSLYLQMNSLRPEDTAFYYCAKDSGVGGGDRPYFYYGMDVWGQGTTVTVSS
chain 2: QSALTQPRSVSGSPGQSVTISCTGTSSDVGGYNYVSWYQQHPGKAPKLMIYDVSKRPSGVPDRFSGSKSGNTASLTISGLQAEDEADYYCCSYAGSYTWVFGGGTKLTVL
B2: BD56-1383 (protein)
chain 1: QVQLVQSGAEVEKPGASVKVSCKASGYTFTSYYMHWVRQAPGQGLEWMGIINPSGGSTNYAQKFQGRVTMTRDTSTSTVYMELSSLRSEDTAVYYCARDSAEVRDYFDYWGQGTLVTVSS
chain 2: B1 chain 2 with Y51F
B3: BD56-1379 (protein)
chain 1: EVQLVESGGGLVQPGRSLRLSCAASGFTFDNYAMHWVRQAPGKGLEWVSGISWNNDNIGYADSVKGRFTISRDNAKNSLYLQMNSLRAEDTALYYCAKGGYYDMLTGAGYYYYYMDVWGQGTTVTVSS
chain 2: QSALTQPASVSGSPGQSITISCTGTSSDVGGYNYVSWYQQHPGKAPKLMIYDVNNRPSGVSNRFSGSKSGNTASLTISGLQAEDEADYYCSSYASTHYVFGTGTKVTVL
B4: BD58-0477 (protein)
chain 1: QVQLVESGGGVVQPGRSLRLSCAASGFTFSSSGMHWVRQAPGKGLEWVAVIWYEGTNKYYADSVKGRFTISRDNSKNTLYLQMNSLRAEDTAVYYCAKESGYSFGWGFNWFDPWGQGTLVTVSS
chain 2: QSVLTQPPSVSGAPGQRVTISCTGSSSNIGAGYDVHWYQQLPGTAPKLLIYGNSNRPSGVPARFSGSKSGTSASLAITGLQAEDEADYYCQSYDSRLGGLLFGGGTKLTVL
B5: BD56-1367 (protein)
chain 1: QITLKESGPTLVKPTQTLTLTCTFSGFSLSTSGVGVGWIRQPPGKALEWLALIYWDDNKLYSPSLMSRLTLTKDTSKNQVVLSMTNMDAADTATYYCAHKYQLAAFDYWGQGTLVTVSS
chain 2: DIHMTQSPSSLSASVGDRVTITCQASQDITNYLNWYQQKPGKAPKLLIYDASNLQTGVPSRFSGSGSGTHFTFTISSLQPEDIATYYCQQYDNLWTFGQGTKVEIK
B6: BD56-1378 (protein)
chain 1: QVQLIQSGTEVKRPGASVKVSCKVSGYFLSELSMHWVRQAPGKGLEWMGGFDLRDGETIFAQKFQGRVTMSEDTLTDTAYMEVRSLRSEDTAVYYCATGGSESFDTWGQGTQVTVSS
chain 2: DIQLTQSPSFLSASVGDRVTITCRASQGISSYLAWYQQKPGKAPKLLIYTASTLESGVPSRFSGSGSETEFTLTISSLQPEDFATYFCQHLHNFPFTFGPGTTVDIK
B7: BD56-1381 (protein)
chain 1: EGQLVESGGGLVQPGGSLRLSCAASGFPVSSNYMSWVRQTPGKGLEWVSVINRSGNTYYADYVKGRFTISRDNSKITLYLQMNSLRGEDTAVYYCASHSGDTGIIDYWGQGTLVTVSS
chain 2: DIQMTQFPSSLSASVGDRVTITCQASQDISNYLNWYQQKPGKAPKLLIYDASNLETGVPSRFSGSGSGTDFTFTISSLQPEDIATYYCQQYDNFPAYTFAQGTKLEIK
B8: BD56-1358 (protein)
chain 1: QVQLVQSGAEVKKPGASVKVSCKTSAYTFTGYFFHWVRQAPGQGLEWMGWIDPNSGGTNYAQKFQGRVTMTRDTSISTAYMELSRLRSDDTAVYYCALSFLEWLKPNYWGQGTLVTVSS
chain 2: DIQMTQSPSSLSASVGDRVTITCQASQDISNYLNWYQQKPGKAPKLLISDASNLETGVPSRFSGSGSGTDFTFTISSLQPEDIATYYCQQYDNLPFTFGPGTKVDIK
B9: BD56-1360 (protein)
chain 1: QVQLQESGPGLVKPSGTLSLTCAVSGGSISSSHWWSWVRQPPGKGLEWIGQIYHSGSTNYNPSLKSRVTISVDKSRNQFSLKVSSVTAADTAVYYCARLDGSSWSYFDYWGQGTLVTVSS
chain 2: DIVMTQTPLSLSVTPGQPASISCKSSQSLLHSDGKAYLYWYLQKPGQSPQLLIYEVSSRFSGVPDRFSGSGSGTDFTLKISRVEAEDVGVYYCMQGLYLPHTFGQGTKLEIK
B10: BD58-0446 (protein)
chain 1: QITLKESGPTLVKPTQTLTLTCTFSGFSLSTSGVGVGWIRQPPGKALEWLALIYWDDDNRYSPSLKSRLAITKDTSKNQVVLILTNMDPVDTATYYCAHRISGKYFKGFDYWGQGTLVTVSS
chain 2: QSVLTQPPSVSAAPGQKVTISCSGSSSNIGNNYVSWYQQLPGTAPKLLIYDNNKRPSGIPDRFSGSKSGTSATLGITGLQTGDEADYYCGAWDTSLRAVLFGGGTKLTVL

Key:
Assay in all cases: pseudovirus neutralization IC50; higher = weaker neutralization
[1] = molecular target: SARS-CoV-2 Omicron BA.1 spike pseudovirus
Procedure: (§1)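 Single-round VSV luciferase pseudovirus mixed with antibody dilutions for 1 h and put on Huh-7 cells for about a day; IC50 from the dose curve.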

[2] = molecular target: SARS-CoV-2 Omicron BA.2 spike pseudovirus
Procedure: as §1

[3] = molecular target: SARS-CoV-2 Omicron BA.2.75 spike pseudovirus
Procedure: as §1

[4] = molecular target: SARS-CoV-2 Omicron BA.2.75.2 spike pseudovirus
Procedure: as §1

[5] = molecular target: SARS-CoV-2 Omicron BA.5 spike pseudovirus
Procedure: as §1

[6] = molecular target: SARS-CoV-2 Omicron BM.1.1.1 spike pseudovirus
Procedure: as §1

[7] = molecular target: SARS-CoV-2 Omicron BQ.1.1 spike pseudovirus
Procedure: as §1

[8] = molecular target: SARS-CoV-2 Omicron BR.2 spike pseudovirus
Procedure: as §1

[9] = molecular target: SARS-CoV-2 Omicron CA.1 spike pseudovirus
Procedure: as §1

[10] = molecular target: SARS-CoV-2 Omicron XBB spike pseudovirus
Procedure: as §1

[11] = molecular target: SARS-CoV-2 early D614G spike pseudovirus
Procedure: as §1

Binder	pseudovirus neutralization IC50 [1] [µg/mL]	pseudovirus neutralization IC50 [2] [µg/mL]	pseudovirus neutralization IC50 [3] [µg/mL]	pseudovirus neutralization IC50 [4] [µg/mL]	pseudovirus neutralization IC50 [5] [µg/mL]	pseudovirus neutralization IC50 [6] [µg/mL]	pseudovirus neutralization IC50 [7] [µg/mL]	pseudovirus neutralization IC50 [8] [µg/mL]	pseudovirus neutralization IC50 [9] [µg/mL]	pseudovirus neutralization IC50 [10] [µg/mL]	pseudovirus neutralization IC50 [11] [µg/mL]
B1	> 10	0.421	> 10	> 10	> 10	> 10	> 10	> 10	> 10	> 10	> 10
B2	1.4	0.261	0.298	> 10	> 10	> 10	> 10	> 10	> 10	> 10	> 10
B3	0.00555	0.003	0.00575	0.0212	0.00736	0.0546	0.0116	0.00442	0.0289	0.0291	> 10
B4	> 10	> 10	> 10	> 10	> 10	> 10	> 10	> 10	> 10	> 10	> 10
B5	0.00384	0.000632	0.000284	0.0142	0.000272	0.00429	0.00257	0.00716	0.00588	0.00453	> 10
B6	> 10	0.0166	0.0328	0.142	0.0178	0.135	0.0252	0.0196	0.12	0.103	> 10
B7	> 10	0.193	> 10	> 10	0.187	> 10	> 10	> 10	> 10	> 10	> 10
B8	> 10	0.314	> 10	> 10	> 10	> 10	> 10	> 10	> 10	> 10	> 10
B9	> 10	0.00378	0.00997	0.0841	0.00888	0.0309	0.0638	0.0287	0.0303	0.0358	> 10
B10	> 10	> 10	> 10	> 10	> 10	> 10	> 10	> 10	> 10	> 10	> 10
